Target: mouse cellular prion protein (PrP^C), full-length, on transfected HEK293 cells (mouse) (UniProt P04925)
Experiment: immunostaining of cells or tissue

recombinant mouse α-synuclein sonicated fibrils (from UniProt O55042 1-140) (natural protein; other documents disagree on this pair)
percent of PrP^C-labelled cells that were α-synuclein-positive: 91.1%
